Measured values from several laboratories, pooled; numbers as filed in NIAID ChemDB.

All rows: target-level tests; species: HIV-1; target: Reverse transcriptase; read by: nucleotide incorporation; endpoint: IC50

Rows are shuffled and stem from different studies.

{"smiles": "CC(C)=CCC[C@@H](C)C1CC[C@]2(C)C3=CC[C@H]4C(C)(C)[C@@H](O)CC[C@]4(C)C3CC[C@@]12C", "value": "3.1 µM"}
{"smiles": "C[C@@H](CNC(=S)Nc1ccc(Br)cn1)c1ccccc1", "value": "0.4 µM"}
{"smiles": "Cc1c(Sc2ccccc2)n(COCCO)c(=O)[nH]c1=O", "value": "0.3 µM"}
{"smiles": "CC(C)=CCC/C(C)=C/CC/C(C)=C/CC/C=C(\\C)CC[C@@H]1C(C)=CC[C@H](O)C1(C)C", "value": ">47 µM"}
{"smiles": "Cc1csc(NC(=S)NC[C@H](C)c2ccccc2)n1", "value": "5.1 µM"}
{"smiles": "C=C(CC[C@@H](C)[C@H]1CC[C@@]2(C)[C@@H]3CC[C@H]4C(C)(C)[C@@H](O)CC[C@]4(C)C3=CC[C@]12C)C(C)C", "value": ">45 µM"}
{"smiles": "COc1cc2c(c(OC)c1OC)-c1c(cc(OC)c(OC)c1OC)C[C@H](C)[C@H](C)C2", "value": "34.5 µM"}
{"smiles": "C[C@H](CNC(=S)Nc1ccc(Cl)cn1)c1ccccc1", "value": "1.4 µM"}
{"smiles": "COc1cc2c(c(OC)c1OC)-c1c(cc3c(c1OC)OCO3)C[C@H](C)[C@@](C)(O)C2", "value": "100 µM"}
{"smiles": "C[C@@H](NC(=S)Nc1nccs1)c1cccc2ccccc12", "value": "12 µM"}
{"smiles": "COc1cc2c(c(OC)c1OC)-c1c(cc3c(c1OC)OCO3)C[C@H](C)[C@@](C)(O)[C@H]2OC(=O)c1ccccc1", "value": ">100 µM"}
{"smiles": "Cc1ccc(NC(=S)N[C@H](C)c2cccc3ccccc23)nc1", "value": "0.45 µM"}
{"smiles": "COc1ccc2nc(NC(=S)N[C@@H](C)c3ccccc3)sc2c1", "value": ">100 µM"}
{"smiles": "CCc1cc(CCc2nc3ccccc3o2)c(=S)[nH]c1C", "changes": "RT-K103N", "value": "0.5 µM"}
{"smiles": "COC(=O)[C@]12CC[C@@H](C)[C@H](C)[C@H]1C1=CC[C@@H]3[C@@]4(C)CC[C@H](O)C(C)(C)[C@@H]4CC[C@@]3(C)[C@]1(C)CC2", "value": "5.5 µM"}
{"smiles": "Cc1c(Sc2ccccc2)n(COCCO)c(=O)[nH]c1=O", "value": "56 µM"}
{"smiles": "Cc1csc(NC(=S)N[C@@H](C)c2ccccc2)n1", "value": ">100 µM"}
{"smiles": "CCOC(=O)Cc1csc(NC(=S)N[C@H](C)c2cccc3ccccc23)n1", "value": "0.89 µM"}
{"smiles": "C=C(C)[C@@H]1CC[C@]2(C)CCC3(C)[C@H](CC[C@@H]4[C@@]5(C)CC[C@H](O)C(C)(C)[C@@H]5CC[C@]43C)[C@@H]12", "value": "3.8 µM"}
{"smiles": "CCc1cc(CCc2nc3ccccc3o2)c(=O)[nH]c1C", "changes": "RT-Y181C", "value": "17.2 µM"}
{"smiles": "C=C(C)[C@@H]1CC[C@]2(C(=O)OC)CC[C@]3(C)[C@H](CC[C@@H]4[C@@]5(C)CC[C@H](O)C(C)(C)[C@@H]5CC[C@]43C)[C@@H]12", "value": "11 µM"}
{"smiles": "C[C@@H](NC(=S)Nc1nc2ccccc2s1)c1cccc2ccccc12", "value": "0.44 µM"}

3 of the rows above, restated:

smiles	changes	value
CC(C)=CCC/C(C)=C/CC/C(C)=C/CC/C=C(\C)CC[C@@H]1C(C)=CC[C@H](O)C1(C)C	-	>47 µM
COc1ccc2nc(NC(=S)N[C@@H](C)c3ccccc3)sc2c1	-	>100 µM
C[C@@H](NC(=S)Nc1nccs1)c1cccc2ccccc12	-	12 µM

Blank or dashed fields: not listed here. ICn is the concentration giving n% inhibition.